In publication PMC8147501:

Biological target: T1, TcSgn1 (UniProt Q4DMU4)
T1 sequence (looked up, limits assumed): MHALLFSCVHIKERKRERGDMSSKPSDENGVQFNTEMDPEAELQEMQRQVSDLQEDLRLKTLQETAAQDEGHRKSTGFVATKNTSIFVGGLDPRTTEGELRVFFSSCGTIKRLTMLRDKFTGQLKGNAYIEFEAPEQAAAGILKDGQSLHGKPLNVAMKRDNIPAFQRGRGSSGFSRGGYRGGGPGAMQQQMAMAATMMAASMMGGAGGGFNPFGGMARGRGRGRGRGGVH
Assay: EMSA
Conditions: 1 mM Mg2+, 500 ng to 3 ug protein, 10 ng probe, unlabeled poly(A) as competitor; 10 mM Tris-HCl pH 7.4, 10 mM KCl, 1 mM MgCl2, 1 mM DTT, 200 ng/mL heparin, 100 mM spermidine, 50% glycerol; room temperature, 30 min; 5% native PAGE; recombinant protein

“AAAAAAAAAAAAAAAAAAAA [poly(A) 20-mer RNA probe]”: binds.

Construct, isoform or probe ends are uncertain for at least one entry. At least one verdict rests on a figure or table, not on a statement of the authors. Where a protein sequence is shown, tags need not be part of it.
